Source: patent US20110129816A1 (NATIONAL UNIVERSITY CORPORATION UNIVERSITY OF TOYAMA, published 2011)

Target: T1, nucleoprotein of influenza virus A/Texas/1/77 (H3N2) (influenza A virus A/Texas/1/77 (H3N2), UniProt P18072 1-498)
Assay: same-clone sandwich CLIA

Binder | binding result
human anti-influenza A virus nucleoprotein monoclonal antibody 23G272 (antibody, V domains shown, also called 23G272 antibody) VH: QVQLVQSGAEVKKPGSSVKVSCKATGDTFSSYSISWVRQAPGQGLEWMGRVTPSFGISLYAQKFQGRVTITADRSSSTAYMELNNLTSDDTAVYYCAAGGLVVVVANHWGQGTLVTVSS VL: EIVLTQSPATLSASVGDRVTITCRASQDITSSLGWYQQRAGEAPKLLLFAASRLESGVPSRFSGSGSGTEYTLTISNLQPEDFATYYCLHYFGSRPWTFGQGTKVEIKR | binds
human anti-influenza A virus nucleoprotein monoclonal antibody 23G268 (antibody, V domains shown, also called 23G268 antibody) VH: QVQLVQSGAVVKKPGDSVKVSCKASGYTFTTYWMHWVRQAPGQGPEWMGIVNPTGGTVMYAKKFQGRVIMTRDTSTTTVFLQLNGLESEDTAIYYCARDLGPARVDFDWLSTFVSWGQGTLVTVSS VL: DIQMTQSPSSLSASVGDRVIITCRASQGITRHLNWYQQKSGKAPKLLIYDASSLQSGVPSRFSGSGSGADFTLTISSVQPEDFATYYCQQSYSNPPTFGPGTKVDIKR | binds
human anti-influenza A virus nucleoprotein monoclonal antibody 23G285 (antibody, V domains shown, also called 23G285 antibody) VH: QVQLVQSGGGVVQPGRSLRLSCAASGFTFSRYGMHWVRQAPGKGLEWVAVILYEGINKDYADSVKGRFTISRDNSKNTLYLQMNSLRAEDTAVYYCARDRELRLDYWGQGTLVTVSS VL: QSVLTQPPSVSGAPGQRVTFSCTGSSSNIGAGYDVNWYQQLPGTAPKVLIYGNTNRPSGVPDRFSASKSGTSASLAITGLQAEDEADYYCQSYDSSLRGYVFGTGTKVSVL | binds
human anti-influenza A virus nucleoprotein monoclonal antibody 23G494 (antibody, V domains shown, also called 23G494 antibody) VH: QVQLVQSGGGLVKPGGSLRLSCAGSGFSFSDYYMTWIRQAPGKGLEWVSSINSGSTVTNYADSVQGRFTISRDKNSVYLQMNSLRTEDTAVYYCARDFGIKAGTSDYWGQGTLVTVSS VL: DIQMTQSPSSLSASVGDRVTITCRASQTISNFLNWYQQKPGKAPKLLIYAASRLQSWVPSRFTGSGSGTDFALTISSLQPEDFATYYCQQTFSPRITFGPGTKVEMKR | binds
human anti-influenza A virus nucleoprotein monoclonal antibody 23G312 (antibody, V domains shown, also called 23G312 antibody) VH: QVQLVQSGGGLVQPGRSLRLSCIASGFSFDDYAMHWVRQIPGKGLEWVSGISWNSGARGYADSVKGRFTISRDNAKNSLYLQMNSLRVGDTAFYYCARDMGAGPNDYDTSGNYPLHLYGMDVWGHGTTVTVSS VL: EIVLTQSPATLSVSPGDRATLSCRASQSVSDKLAWYQQKPGQAPRLLIYGAYTRATGTPARFSGSGSGTEFTLSITGLQAEDFAIYYCHQYNNWPLTFGGGTKVDIK | binds
human anti-influenza A virus nucleoprotein monoclonal antibody 23G447 (antibody, V domains shown, also called 23G447 antibody) VH: QVQLQESGPGLVKPSQTLSLTCSVSGGSISNPDHYWNWIRQPPGKGLEWIGYIYYTGRTWYSPSLKSRVSLSVDTSKSQFSLNVDSVIAADTAVYYCARSHVWFGELYWGQGALVTVSS VL: QSVLTQPPSVSAAPGQKVTISCSGRSSNVGDNYVSWYQQFPGTAPKLLIYDNTKRPSGIPDRFSGSKSGTSATLGITGLQTGDEAAYYCATWDSVLSAGVFGGGTKLTVL | binds

Target: T1, nucleoprotein of influenza virus …
Assay: same-clone sandwich CLIA
Remark: another data set of the same source

Binder | binding result
human anti-influenza B virus nucleoprotein monoclonal antibody 23G327 (antibody, V domains shown, also called 23G327 antibody) VH: QVQLVQSGAEVKRPGASVKVSCKASGYNLIDFYVNWVRQVPGQGLEWMGYINPDSGGAHYEGKFQGRVIMTRDTSINTAYMELPSLTSDDTAVYFCARGASSGLLTYYYGLDVWGEGTTVIVSS VL: DIQMTQSPSSLSASIGDRVTITCRASPGINSYLAWYQHKPGKAPKLLIYAASTLQSGVPSRFSGSGSGTDFTLTISSLQPEDVATYYCQKYNSAPWTFGPGTKVEIK | no binding (tested: S/N<2.1)
